Compound potency records, mixed from different reports. Data source: NIAID ChemDB in PubChem.

Common to all: tests in culture; species: Mycobacterium marinum; measure: MIC

Neighbouring rows are from separate reports. Blank or dashed fields: not listed here.

compound | strain | method | value
C=C1C(=O)[C@@]23C(=O)O[C@H]4CCC(C)(C)[C@H]5C(=O)OC[C@@]45[C@@H]2CC[C@@H]1[C@H]3OC(=O)c1cc2ccccc2[nH]1 | ATCC 927 | resazurin | 8 µg/mL
CCCCCCCCCCCCCCCCCCCCCCNC(=O)NC(CCC(=O)O)(CCC(=O)O)CCC(=O)O | ATCC 927 | - | 108 µg/mL
C=C1C(=O)[C@@]23C(=O)O[C@H]4CCC(C)(C)[C@H]5[C@H](O)OC[C@@]45[C@@H]2CC[C@@H]1[C@H]3OC(=O)c1ccccc1 | ATCC 927 | resazurin | 4 µg/mL
CCCCCCCCCCCCCCCCCCCCCCCCCCCCCCOC(=O)NC(C)(CCC(=O)O)CCC(=O)O | ATCC 927 | - | 105 µg/mL
Cc1c(C)c(C)[c-](C)c1C.N[C@@H](Cc1ccccc1)C(=O)[O-].[Cl][Ir+2] | ATCC 927 | - | >250 µg/mL
C=C1C(=O)[C@@]23C(=O)O[C@H]4CCC(C)(C)[C@H]5[C@H](O)OC[C@@]45[C@@H]2CC[C@@H]1[C@H]3OC(=O)c1cc2ccccc2[nH]1 | ATCC 927 | resazurin | 8 µg/mL
CCCCCCCCCCN(CCCCCCCCCC)C(=O)NC(CCC(=O)O)(CCC(=O)O)CCC(=O)O | ATCC 927 | - | 71 µg/mL
CCOc1ccc(-c2n[nH]c(C(F)(F)F)c2-c2ccc(Cl)cc2)c(O)c1 | - | visual reading | 50 µg/mL
C=C1C(=O)[C@@]23C(=O)O[C@H]4CCC(C)(C)[C@H]5C(=O)OC[C@@]45[C@@H]2CC[C@@H]1[C@H]3OC(=O)c1cnccn1 | ATCC 927 | resazurin | >64 µg/mL
C[C@@H]1CN(c2c(F)c(N)c3c(=O)c(C(=O)O)cn(C4CC4)c3c2F)C[C@H](C)N1 | ATCC 927 | broth dilution / visual reading | 2 µg/mL
Oc1ccc(-c2n[nH]c(C(F)(F)F)c2-c2ccc(Cl)cc2)c(O)c1 | - | visual reading | >50 µg/mL
C=C1C(=O)[C@@]23C(=O)O[C@H]4CCC(C)(C)[C@H]5C(=O)OC[C@@]45[C@@H]2CC[C@@H]1[C@H]3OC(=O)c1ccc(F)cc1 | ATCC 927 | resazurin | 8 µg/mL
CCOc1ccc(-c2n[nH]c(C(F)(F)F)c2-c2ccc(Br)cc2)c(O)c1 | - | visual reading | 50 µg/mL
CCCCCCCCCCCCCCC(=O)NC(C)(CCC(=O)O)CCC(=O)O | ATCC 927 | - | 286 µg/mL
NNC(=O)COc1ccc(-c2n[nH]c(C(F)(F)F)c2-c2ccc(Cl)cc2)c(O)c1 | - | visual reading | >50 µg/mL
CCCCCCCC(CCCCCCC)NC(=O)NC(CCC(=O)O)(CCC(=O)O)CCC(=O)O | ATCC 927 | - | 144 µg/mL
COc1ccccc1-c1c(-c2ccc(OCC(=O)NN)cc2O)n[nH]c1C(F)(F)F | - | visual reading | >50 µg/mL
CCCCCCCCCCCCCCCCCCCCCOC(=O)NC(C)(CCC(=O)O)CCC(=O)O | ATCC 927 | - | 424 µg/mL

For reference, 2 entries again:

compound	strain	method	value
NNC(=O)COc1ccc(-c2n[nH]c(C(F)(F)F)c2-c2ccc(Cl)cc2)c(O)c1	-	visual reading	>50 µg/mL
C=C1C(=O)[C@@]23C(=O)O[C@H]4CCC(C)(C)[C@H]5C(=O)OC[C@@]45[C@@H]2CC[C@@H]1[C@H]3OC(=O)c1ccc(F)cc1	ATCC 927	resazurin	8 µg/mL